A mixed list of measured activities; the numbers were collected in NIAID ChemDB.

Shared fields: tests in culture; species: Mycobacterium smegmatis

ECn: concentration that inhibits the pathogen or its effect by n%. Two numbers with a dash give a range or band. MIC50, MIC90 and the like: level of inhibition, or share of isolates inhibited. Conditions beyond the fields shown may differ between rows. Inhibition is in % at the dose shown (toxicity tests: loss of growth or viability). An empty or dashed field is not shown.

CCCCCCSCCCCCCCCCCC#CC(=O)O ; strain or isolate: mc2651 ; measure: MIC99 ; result: 153.2 µM
CC(NCCNC(C)c1ccccc1)c1ccccc1 ; strain or isolate: ATCC 607 ; measure: EC50 ; result: <250 µg/mL
COc1ccc(-c2cc(C(=O)Nc3ccc(S(=O)(=O)Nc4onc(C)c4C)cc3)c3ccccc3n2)cc1 ; method: turbidity ; measure: MIC80 ; result: >100 µM
CC(C)N[C@@H]1CCCC[C@H]1NC(C)C ; strain or isolate: ATCC 607 ; measure: EC50 ; result: >250 µg/mL
CCS(=O)CCCCCCCCCCCCC#CC(=O)O ; strain or isolate: mc2155 ; measure: MIC99 ; result: >200 µM
CC(C)N1CCN(C(C)C)CC1 ; strain or isolate: ATCC 607 ; measure: inhibition ; tested at: 1000 µg/mL ; result: 0%
CCCCCCCCCCCCCCCC#CC(=O)OCC(O)CO ; strain or isolate: mc22389 ; measure: MIC99 ; result: 17.6 µM
NNC(=O)c1ccncc1 ; strain or isolate: MC^2 845 ; measure: MIC ; result: 60 µg/mL
CCCCCNCCNCCCCC ; strain or isolate: ATCC 607 ; measure: inhibition ; tested at: 250 µg/mL ; result: 100%
CCSCCCCCCCCCCCCC#CC(=O)O ; strain or isolate: mc2155 ; measure: MIC99 ; result: 50.3 µM
C[C@H](NCCN[C@H](C)c1ccccc1)c1ccccc1 ; strain or isolate: ATCC 607 ; measure: EC50 ; result: <250 µg/mL
CCC1CN(c2cc3c(cc2F)c(=O)c(C(=O)O)cn3C2CC2)CCN1 ; strain or isolate: WT ; measure: MIC99 ; result: 0.062 µg/mL
CCCCCCCCCCCCSCC#CC(=O)O ; strain or isolate: mc2155 ; measure: MIC99 ; result: 43.9 µM
COc1c(N2C[C@@H]3CCCN[C@@H]3C2)c(F)cc2c(=O)[nH]c(=O)n(C3CC3)c12 ; strain or isolate: G89C mutant ; measure: MIC99 ; result: 50 µg/mL
Cc1ccc(-c2cc(C(=O)Nc3ccc(S(=O)(=O)Nc4cc(C)on4)cc3)c3ccccc3n2)c(C)c1 ; method: turbidity ; measure: MIC80 ; result: 40–80 µM
COc1c(N2CCC(N)C2)c(F)cc2c(=O)c(C(=O)O)cn(C3CC3)c12 ; strain or isolate: A91V mutant ; measure: MIC99 ; result: 1 µg/mL
CCC(C)(C)NCCNC(C)C ; strain or isolate: ATCC 607 ; measure: EC50 ; result: >250 µg/mL
CCCCCCCCCCCCCCCC#CC(=O)Oc1nccnc1C(=O)OCCC ; strain or isolate: mc2155 ; measure: MIC99 ; result: 11.2 µM
O=C(Nc1ccc(S(=O)(=O)Nc2nccs2)cc1)c1cc(-c2ccccc2Cl)nc2ccccc12 ; method: turbidity ; measure: MIC80 ; result: 20–40 µM
CCCCCCCCC#CCCCCCCC#CC(=O)O ; strain or isolate: mc2155 ; measure: MIC99 ; result: 68.9 µM
O=C(Nc1ccc(S(=O)(=O)NC2=NCCC2)cc1)c1cc(-c2ccco2)nc2ccccc12 ; method: turbidity ; measure: MIC80 ; result: >100 µM
CCCCCCCCCCCCCC#CCC#CC(=O)O ; strain or isolate: mc2155 ; measure: MIC99 ; result: 86.1 µM
Cc1ccc(-c2cc(C(=O)Nc3ccc(S(=O)(=O)Nc4nccs4)cc3)c3ccccc3n2)c(C)c1 ; method: turbidity ; measure: MIC80 ; result: >100 µM
COc1ccc(-c2csc(N3N=C(c4cccs4)CC3c3ccc4c(c3)OCO4)n2)cc1 ; strain or isolate: ATCC 607 ; measure: inhibition ; tested at: 1000 µg/mL ; result: 0%
COc1c(N2CC[C@@H](CN)C2)c(F)cn2c(=O)n(N)c(=O)c(C3CC3)c12 ; strain or isolate: WT ; measure: MIC99 ; result: 5 µg/mL
CC(C)NCCNC(C)C ; strain or isolate: ATCC 607 ; measure: EC50 ; result: <60 µg/mL
Cc1ccc(-c2cc(C(=O)Nc3ccc(S(=O)(=O)Nc4onc(C)c4C)cc3)c3ccccc3n2)cc1 ; method: turbidity ; measure: MIC80 ; result: >100 µM

Repeating the final 4 entries:

SMILES	strain or isolate	method	measure	tested at	result
COc1ccc(-c2csc(N3N=C(c4cccs4)CC3c3ccc4c(c3)OCO4)n2)cc1	ATCC 607		inhibition	1000 µg/mL	0%
COc1c(N2CC[C@@H](CN)C2)c(F)cn2c(=O)n(N)c(=O)c(C3CC3)c12	WT		MIC99		5 µg/mL
CC(C)NCCNC(C)C	ATCC 607		EC50		<60 µg/mL
Cc1ccc(-c2cc(C(=O)Nc3ccc(S(=O)(=O)Nc4onc(C)c4C)cc3)c3ccccc3n2)cc1		turbidity	MIC80		>100 µM